Anti-infective test results gathered from many reports (values: NIAID ChemDB through PubChem).

Common to all: cytotoxicity tests; endpoint: CC50

CCn: concentration that lowers growth or viability of the cells by n%.

structure | cell line | method | value
Cc1c(-c2ccc(F)cc2)[nH]c2nc3c(ncn3COCCO)c(=O)n12 | OST TK- | - | 122 µg/mL
COC(=O)N[C@@H](Cc1cccc2ccccc12)C(=O)N[C@H](CCC[C@@H](CO)N(CCC(C)C)S(=O)(=O)c1ccc(N)cc1)C1CC1 | T lymphoid cells | microscopy | >10 µM
N[C@@H](Cc1cnc[nH]1)C(=O)NCCNc1c2ccccc2nc2ccccc12 | KB cells | MTS | <10 µM
O=c1cc(-c2ccn[nH]2)c2cccnc2n1O | HeLa | - | <100 µM
Nc1nc(=O)n([C@H]2C[C@H](O)[C@@H](CO)O2)cc1/C=C/Cl | NIH 3T3 | cell count | 216 µM
COc1ccc(Cl)cc1Nc1ncnc2c1cnn2-c1ccc(Cl)cc1 | HUH 9B | - | >31 µM
CCOC(=O)[C@@]1(C)CC[C@]2(C)CC[C@]3(C)C(=CC(=O)[C@@H]4[C@@]5(C)CC/C(=N\OCc6cnc(Cl)s6)C(C)(C)[C@@H]5CC[C@]43C)[C@@H]2C1 | CT26 | MTT | 12.29 µM
CSc1nsc(-c2ccc(C(F)(F)F)cc2)c1C#N | HEP-2 | - | 14 µM
Cc1ccc(-n2ncc3c(NC(=O)Nc4ccc(C)c(C)c4)ncnc32)c(C)c1 | HUH 9B | - | 13.5 µM
CSc1nsc(-c2cc[n+](C)cc2)c1C#N | L929 | - | 1000 µM
CC(C)N(Cc1cccc(OCCCCCC(=O)OC(=O)O)c1)C(=O)c1ccc(-c2cc3ccccc3n2S(=O)(=O)c2ccccc2)cc1 | BJ | - | >20 µM
Cc1c(-c2ccc(C(F)(F)F)cc2)[nH]c2nc3c(ncn3COCCO)c(=O)n12 | OST TK- | - | ≥500 µg/mL
COc1ccc(Cl)cc1Nc1ncnc2c1cnn2-c1ccccc1 | HUH 9B | - | >50 µM
O=c1[nH]c(=O)n([C@H]2C[C@H](O)[C@@H](CO)O2)cc1I | RF | cell count | ≥367 µM
O=C(Nc1ccc2c(c1)OCO2)c1cc(-c2cccs2)nc2ccccc12 | HepG2 | - | >20 µM
Fc1cccc(Nc2ncnc3c2cnn3-c2ccc(Cl)cc2)c1 | HUH 9B | - | >36 µM
COc1ccc2nc3cc(Cl)ccc3c(NCCNC(=O)[C@@H]3CCCN3)c2c1 | MRC-5 cells | MTS | 0.325 µM
O=c1c2ncn(COCCO)c2nc2[nH]c(-c3ccc(C(F)(F)F)cc3)cn12 | OST TK-/HSV-1 TK+ | - | 0.2 µg/mL
Cc1ccc(-n2ncc3c(Nc4ccc(N5CCOCC5)c(C#N)c4)ncnc32)c(C)c1 | HUH 9B | - | >50 µM
N#Cc1csnc1-c1ccccc1 | HEP-2 | - | 100 µM
CCCCc1ccc(Nc2ncnc3c2cnn3-c2ccccc2Br)cc1 | HUH 9B | - | >50 µM
C=C[C@H](CCC[C@@H](CO)N(CCC(C)C)S(=O)(=O)c1ccc(CO)cc1)NC(=O)[C@@H](NC(=O)OC)C(c1ccccc1)c1ccccc1 | T lymphoid cells | microscopy | >10 µM
Cc1ccc(-n2ncc3c(CNc4ccc(Cl)c(Cl)c4)ncnc32)c(C)c1 | HUH 9B | - | 34 µM
Nc1nc2c(ncn2COC(CO)CO)c(=O)[nH]1 | NIH 3T3 | cell count | 137 µM
CC[C@@H](CCC[C@@H](CO)N(C(C)C)S(=O)(=O)c1ccc(N)cc1)NC(=O)[C@@H](NC(=O)OC)C(c1ccccc1)c1ccccc1 | T lymphoid cells | microscopy | >10 µM
CSc1nsc(-c2ccc(OCc3ccccc3)cc2)c1C#N | L929 | - | >50 µM
CC(C)N(Cc1cccc(OCCCCCC(=O)OC(=O)O)c1)C(=O)c1ccc(-c2cccc(F)c2)cc1 | RAJI | - | >20 µM
COc1ccc(-c2snc(SC)c2C#N)cc1 | HEP-2 | - | 10 µM
C[C@H](O)Cc1cc2c(O[C@H]3O[C@H](CO)[C@@H](O)[C@H]3O)ccc(O)c2c(=O)o1 | A-594 | MTT | >40 µg/mL
CCOc1ccc(Nc2ncnc3c2cnn3-c2ccccc2)cc1 | HUH 9B | - | 50 µM
CSc1nsc(-c2ccccc2Cl)c1C#N | HEP-2 | - | 5 µM
CCOC(=O)[C@@]1(C)CC[C@]2(C)CC[C@]3(C)C(=CC(=O)[C@@H]4[C@@]5(C)CC/C(=N\OCc6cc(F)cc(F)c6)C(C)(C)[C@@H]5CC[C@]43C)[C@@H]2C1 | CT26 | MTT | 10.38 µM
O=c1[nH]c(=O)n([C@H]2C[C@H](O)[C@@H](CO)O2)cc1-c1ccc(Br)s1 | RF | cell count | 288 µM
N[C@@H](Cc1cnc[nH]1)C(=O)NCCCCNc1c2ccccc2nc2ccccc12 | KB cells | MTS | 4.85 µM
C[C@@H]1C[C@@H](O)c2c(O[C@H]3O[C@H](CO)[C@@H](O)[C@H]3O)cccc2O1 | SW-480 | MTT | >40 µg/mL
O=C(NCc1ccccc1)c1ccc2c(c1)CCN(c1cc(=O)n(O)c3ncccc13)C2 | HeLa | - | <100 µM
NS(=O)(=O)c1ccc(CCNc2ncnc3c2cnn3-c2ccc(Cl)cc2Cl)cc1 | HUH 9B | - | 10 µM
CC[C@@H](CCC[C@@H](CO)N(CCCF)S(=O)(=O)c1ccc(N)cc1)NC(=O)[C@@H](NC(=O)OC)C(c1ccccc1)c1ccccc1 | T lymphoid cells | microscopy | >10 µM
O=c1cc(NCc2cccnc2)c2cccnc2n1O | HeLa | - | <100 µM
N[C@@H](Cc1cnc[nH]1)C(=O)NCCCCCCNc1c2ccccc2nc2ccccc12 | KB cells | MTS | 3.7 µM
CC(C)N(Cc1ccc(OCC(=O)O)cc1)C(=O)c1ccc(-c2ccc3c(c2)OCO3)cc1 | HEK 293 | - | >20 µM
O=c1c2ncn(COCCO)c2nc2[nH]c(-c3ccccc3)c(Cc3ccccc3)n12 | OST TK-/HSV-1 TK+ | - | 0.29 µg/mL
COc1ccc2nc3cc(Cl)ccc3c(NCCCCCCNC(=O)[C@@H]3CCCN3)c2c1 | KB cells | MTS | 0.443 µM
COC(=O)N[C@@H](Cc1ccccc1Br)C(=O)N[C@@H](C)CCC[C@@H](CO)N(CC(C)C)S(=O)(=O)c1ccc(CO)cc1 | T lymphoid cells | microscopy | >10 µM
CCOC(=O)[C@@]1(C)CC[C@]2(C)CC[C@]3(C)C(=CC(=O)[C@@H]4[C@@]5(C)CC/C(=N\OCc6ccccc6)C(C)(C)[C@@H]5CC[C@]43C)[C@@H]2C1 | CT26 | MTT | 76.65 µM
S=c1cc(-c2ccccc2)s[nH]1 | L929 | - | 90 µM
O=c1cc(NCc2ccncc2)c2cccnc2n1O | HeLa | - | <100 µM
CSc1nsc(-c2ccc(Cl)cc2)c1C#N | L929 | - | 5 µM
COC(=O)N[C@H](C(=O)N[C@@H](C)CCC[C@@H](CO)N(CCC(C)C)S(=O)(=O)c1ccc(N)c(F)c1)C(c1ccccc1)c1ccccc1 | T lymphoid cells | microscopy | >10 µM
CCOC(=O)[C@@]1(C)CC[C@]2(C)CC[C@]3(C)C(=CC(=O)[C@@H]4[C@@]5(C)CC/C(=N\OCc6ccc(C(=O)OC)o6)C(C)(C)[C@@H]5CC[C@]43C)[C@@H]2C1 | CT26 | MTT | 31.28 µM

An empty or dashed field is not shown. Rows are shuffled and stem from different studies.